Assay results taken from patent US20060280723A1 (priority 2003, published 2006).

Tested on: SARS-HCoV
Assay type: cell-based, SARS human coronavirus (SARS-HCoV)

For “interferon β1a: interferon beta (IFNβ) subtype β1a”, the “Dose-dependent inhibition of SARS-HCoV plaque formation” value was “dose-dependent inhibition”.
